Anti-infective test results gathered from many reports (values: NIAID ChemDB through PubChem).

Shared fields: tests in culture; organism: HIV-1; cell line: CEM; measure: EC50

ECn is the concentration giving n% inhibition of infection, replication or growth.

Nc1ccn([C@H]2CC[C@@H](CO)O2)c(=O)n1 ; strain: IIIB TIBO R82913 STR-1 (RT L100I Y181C) ; mutations: RT-L100I Y181C ; read by: syncytia ; result: 0.04 µM
O=C1CN=C(c2ccc[nH]2)c2cc(Cl)ccc2N1 ; strain: IIIB/LAI ; read by: antigen ; result: 0.9 µM
Cc1cc(S(=O)(=O)/N=C(/NN)NNc2cccc(C(F)(F)F)n2)c(S)cc1Cl ; strain: RF ; read by: cytopathic effect / XTT ; result: >54 µM
CCCCCCCCCCOCCC(=O)O ; read by: cytopathic effect / MTT ; result: 18 µM
CC(C)Nc1cccnc1N1CCN(C(=O)c2cc3ccccc3[nH]2)CC1 ; strain: TSAO(RT-E138K) ; mutations: RT-E138K ; read by: syncytia ; result: 0.07 µM
Cc1cn([C@H]2C[C@H](N=[N+]=[N-])[C@@H](COP(=O)(O)OC[C@H]3OC(O)[C@H](O)[C@@H](O)[C@@H]3O)O2)c(=O)[nH]c1=O ; strain: LAV-Bru ; read by: RT activity ; setting: 22 d ; result: <0.2 µM
Cc1cn([C@H]2C[C@H](N=[N+]=[N-])[C@@H](CO)O2)c(=O)[nH]c1=O ; strain: IIIB TSAO-T(RT-E138K) ; mutations: RT-E138K ; read by: syncytia ; result: 0.009 µM
Cc1cn([C@@H]2O[C@H](CO[Si](C)(C)C(C)(C)C)C3(OS(=O)(=O)C=C3N)[C@H]2O[Si](C)(C)C(C)(C)C)c(=O)n(C)c1=O ; strain: IIIB ; mutations: RT-E138K ; read by: syncytia ; result: >80 µM
Cc1c(O)cccc1C(=O)N[C@@H](CSc1ccccc1)[C@H](O)CN1C[C@H]2CCCC[C@H]2C[C@H]1C(=O)NC(C)(C)C ; strain: IIIB ; read by: cytopathic effect / XTT ; setting: 15% FBS ; result: 0.019 µM
C[C@H](Cn1cnc2c(N)ncnc21)OCP(=O)(O)O ; strain: IIIB ; mutations: RT-K103N ; read by: syncytia ; result: 1.7 µg/mL
Fc1cccc(F)c1C1SCc2nc3ccccc3n21 ; mutations: RT-E138K ; read by: cytopathic effect ; result: 1.73 µM
COC1(OC)CCCCC2c3cccc(OC(C)=O)c3C21OC(C)=O ; strain: IIIB ; read by: cytopathic effect / XTT ; result: 7.9 µM
CCCCCCOCCCCCCC(=O)O ; read by: cytopathic effect / MTT ; result: >40 µM
Nc1nc2c(ncn2CC(OCCF)OCP(=O)(O)O)c(=O)[nH]1 ; read by: cytopathic effect ; result: 33.3 µg/mL
Cc1cn([C@H]2C[C@H](N=[N+]=[N-])[C@@H](CO)O2)c(=O)[nH]c1=O ; read by: cytopathic effect / MTT ; result: 0.02 µM
Cc1cccc(C)c1CNC(=O)[C@H]1N(C(=O)[C@@H](O)[C@H](Cc2ccc3c(c2)OCO3)NC(=O)c2cccc(O)c2C)CSC1(C)C ; strain: IIIB ; read by: cytopathic effect / XTT ; setting: 15% FBS ; result: 0.003 µM
CCOCn1c(Cc2ccccc2)c(C(C)C)c(=O)[nH]c1=O ; strain: Q-1 (RT T139K Y181C Y188D/Y) ; mutations: RT-T139K Y181C Y188D/Y ; read by: cytopathic effect ; result: 2 µg/mL
CC(C)(C)NC(=O)[C@@H]1C[C@@H]2CCCC[C@@H]2CN1C[C@@H](OC(=O)CCCCOc1ccc(C[C@H](N)C(=O)O)cc1)[C@H](Cc1ccccc1)NC(=O)[C@H](CC(N)=O)NC(=O)c1ccc2ccccc2n1 ; strain: LAI ; read by: RT activity ; result: 0.039 µM
Cc1cc(S(=O)(=O)Nc2nc(N)nc(N(C)C)n2)c(S)cc1Cl ; strain: RF ; read by: cytopathic effect / XTT ; result: >200 µM
C=C(C)OC(=O)N1c2cc(Cl)ccc2NC(=S)C1(C)C ; strain: Pyr/BHAP(RT-Y181I) ; mutations: RT-Y181I ; read by: syncytia ; result: 5.3 µM
Cc1ccnc2c1NC(=O)c1cccnc1N2C1CC1 ; strain: IIIB ; read by: cytopathic effect ; result: 0.0064 µg/mL
COCCCCCCCCCCCC(=O)O ; read by: cytopathic effect / MTT ; result: 4 µM
COc1cccc(C[C@H](NC(=O)c2cccc(O)c2C)[C@H](O)C(=O)N2CSC(C)(C)[C@H]2C(=O)NCc2c(C)cccc2C)c1 ; strain: IIIB ; read by: cytopathic effect / XTT ; setting: 50% human serum ; result: 0.009 µM
CCCCCCCC/C=C\CCCCCCCC(=O)O[C@@H]1Cc2ccccc2[C@@H]1NC(=O)[C@H](Cc1ccccc1)C[C@H](O)CN1CCN(Cc2cccnc2)C[C@H]1C(=O)NC(C)(C)C ; strain: LAI ; read by: RT activity ; result: 0.11 µM
Cc1ccccc1CNC(=O)[C@H]1N(C(=O)[C@@H](O)[C@H](Cc2ccccc2)NC(=O)c2cccc(O)c2C)CSC1(C)C ; strain: IIIB ; read by: cytopathic effect / XTT ; setting: 50% human serum ; result: 0.052 µM
Cc1cc(S(=O)(=O)Nc2nnc3ccccn23)c(S)cc1Cl ; strain: RF ; read by: cytopathic effect / XTT ; result: 97.9 µM
Cc1cn([C@H]2C[C@H](N=[N+]=[N-])[C@@H](CO)O2)c(=O)[nH]c1=O ; strain: IIIB ; mutations: RT-K103N ; read by: syncytia ; result: 0.005 µg/mL
Fc1cccc(F)c1C1SCc2nc3ccccc3n21 ; strain: IIIB ; mutations: RT-D138K ; read by: cytopathic effect / XTT ; result: 1.73 µM
Cc1cn([C@H]2C[C@H](N=[N+]=[N-])[C@@H](COP(=O)(O)OC[C@H]3OC(O)[C@@H](O)[C@@H](O)[C@@H]3O)O2)c(=O)[nH]c1=O ; strain: LAV-Bru ; read by: RT activity ; setting: 15 d ; result: <0.2 µM
CC(C)(C)NC(=O)[C@@H]1C[C@@H]2CCCC[C@@H]2CN1C[C@@H](OC(=O)[C@H](Cc1ccccc1)NC(=O)OC(C)(C)C)[C@H](Cc1ccccc1)NC(=O)[C@H](CC(N)=O)NC(=O)c1ccc2ccccc2n1 ; strain: LAI ; read by: RT activity ; result: 0.028 µM
CCCOCCCCCCCCCC(=O)O ; read by: cytopathic effect / MTT ; result: <40 µM
Nc1ccn([C@H]2CC[C@@H](CO)O2)c(=O)n1 ; strain: IIIB ; read by: syncytia ; result: 0.05 µM
Cc1cc(S(=O)(=O)Nc2nc(N)nc(N(C)C)n2)c(SC(C(=O)O)c2ccccc2)cc1Cl ; strain: RF ; read by: cytopathic effect / XTT ; result: >200 µM
CCCCCCCOCCCCCC(=O)O ; read by: cytopathic effect / MTT ; result: <40 µM
CCCCCCCCCCCCCCCC(=O)OCC(COC(=O)CCCCCCCCCCCCCCC)OC(=O)CCC(=O)O[C@H](CN1C[C@H]2CCCC[C@H]2C[C@H]1C(=O)NC(C)(C)C)[C@H](Cc1ccccc1)NC(=O)[C@H](CC(N)=O)NC(=O)c1ccc2ccccc2n1 ; strain: LAI ; read by: RT activity ; result: 0.11 µM
CC(C)=CCN1Cc2cc(Cl)cc3[nH]c(=S)n(c23)C[C@@H]1C ; strain: IIIB ; mutations: RT-E138K ; read by: syncytia ; result: 0.63 µM
CC(C)=CCN1Cc2cc(Cl)cc3[nH]c(=S)n(c23)C[C@@H]1C ; strain: Pyr(RT-Y181C) ; mutations: RT-Y181C ; read by: syncytia ; result: 6.2 µM
Cc1cn([C@H]2C[C@H](N=[N+]=[N-])[C@@H](CO)O2)c(=O)[nH]c1=O ; strain: IIIB-BHAP)(0.1)(RT-L100I ; mutations: RT-L100I ; read by: syncytia ; result: 0.008 µM
Cc1ccnc2c1NC(=O)c1cccnc1N2C1CC1 ; strain: IIIB ; mutations: RT-L100I ; read by: syncytia ; result: 0.06 µg/mL
COc1ccc(C[C@H](NC(=O)c2cccc(O)c2C)[C@H](O)C(=O)N2CSC(C)(C)[C@H]2C(=O)NCc2c(C)cccc2C)cc1 ; strain: IIIB ; read by: cytopathic effect / XTT ; setting: 15% FBS ; result: 0.0076 µM
Fc1cccc(F)c1[C@H]1SCc2nc3ccccc3n21 ; strain: IIIB ; read by: cytopathic effect / XTT ; result: 0.62 µM
CC(C)(C)NC(=O)[C@@H]1C[C@@H]2CCCC[C@@H]2CN1C[C@@H](OC(=O)COc1ccc(C[C@H](N)C(=O)O)cc1)[C@H](Cc1ccccc1)NC(=O)[C@H](CC(N)=O)NC(=O)c1ccc2ccccc2n1 ; strain: LAI ; read by: RT activity ; result: 0.033 µM
Fc1cccc(F)c1[C@@H]1SCc2nc3ccccc3n21 ; strain: IIIB ; mutations: RT-Y181C ; read by: cytopathic effect / XTT ; result: ≥34.7 µM
CCc1c(Sc2ccccn2)n(COCc2ccccc2)c(=O)[nH]c1=O ; strain: IIIB ; read by: cytopathic effect / XTT ; result: 0.22 µM
CC(=O)Oc1ccc(S)c(S(=O)(=O)Nc2n[nH]c(N)n2)c1 ; strain: RF ; read by: cytopathic effect / XTT ; result: >200 µM
CCCCCCCCCCCCCCCCOP(=O)(OC[C@H]1OC(O)[C@H](O)[C@@H](O)[C@@H]1O)OC[C@H]1O[C@@H](n2cc(C)c(=O)[nH]c2=O)C[C@@H]1N=[N+]=[N-] ; strain: LAV-Bru ; read by: RT activity ; setting: 26 d ; result: >1 µM
O=S(=O)(c1ccccc1)c1ccccc1 ; strain: IIIB ; read by: cytopathic effect / XTT ; result: 2.3 µM
CCc1cc(NCc2nc3c(Cl)ccc(Cl)c3o2)c(=O)[nH]c1C ; strain: TSAO(RT-E138K) ; mutations: RT-E138K ; read by: syncytia ; result: 0.48 µM
Cc1cc(S(=O)(=O)Nc2nc(N)n(-c3ccccn3)n2)c(S)cc1Cl ; strain: RF ; read by: cytopathic effect / XTT ; result: 114.7 µM
Nc1nc2c(ncn2[C@H]2CC[C@@H](CO)O2)c(=O)[nH]1 ; strain: IIIB TSAO-T(RT-E138K) ; mutations: RT-E138K ; read by: syncytia ; result: 3.5 µM
Nc1ncnc2c1ncn2CCOCP(=O)(O)O ; strain: IIIB-Pyridinone(0.1)(RT-V179N ; mutations: RT-V179N ; read by: syncytia ; result: 13 µM
Nc1ccn([C@H]2CC[C@@H](CO)O2)c(=O)n1 ; strain: IIIB ; mutations: RT-E138K ; read by: syncytia ; result: 0.09 µM
CCOCn1c(Cc2cc(C)cc(C)c2)c(CC)c(=O)[nH]c1=O ; strain: IIIB TIBO R82150-resistant (RT L100I) ; mutations: RT-L100I ; read by: syncytia ; result: 0.054 µM
O=c1[nH]cnc2c1ncn2[C@H]1CC[C@@H](CO)O1 ; strain: IIIB ; mutations: RT-E138K ; read by: syncytia ; result: 15 µM
O=S(=O)(Nc1nnc2n1-c1ccccc1CC2)c1ccc(Cl)cc1S ; strain: RF ; read by: cytopathic effect / XTT ; result: >91.3 µM
Cc1cn([C@@H]2O[C@H](CO[Si](C)(C)C(C)(C)C)C3(OS(=O)(=O)C=C3N)[C@H]2O[Si](C)(C)C(C)(C)C)c(=O)n(C)c1=O ; strain: IIIB-TIBO(0.1) ; read by: syncytia ; result: 0.07 µg/mL
CCCCCCCC/C=C\CCCCCCCC(=O)OCC(COC(=O)CCCCCCC/C=C\CCCCCCCC)OC(=O)CCC(=O)O[C@H](CN1C[C@H]2CCCC[C@H]2C[C@H]1C(=O)NC(C)(C)C)[C@H](Cc1ccccc1)NC(=O)[C@H](CC(N)=O)NC(=O)c1ccc2ccccc2n1 ; strain: LAI ; read by: RT activity ; result: 0.8 µM
CCn1c(=O)c(C)cn([C@@H]2O[C@H](CO[Si](C)(C)C(C)(C)C)C3(OS(=O)(=O)C=C3N)[C@H]2O[Si](C)(C)C(C)(C)C)c1=O ; strain: IIIB TIBO R82913 STR-B22 (RT L100I Y188H) ; mutations: RT-L100I Y188H ; read by: syncytia ; result: >50 µM
Cc1cn([C@H]2C[C@H](N=[N+]=[N-])[C@@H](CO)O2)c(=O)[nH]c1=O ; strain: C-1 (RT-K101E) ; mutations: RT-K101E ; read by: cytopathic effect ; result: 0.0025 µM
CC(=O)Oc1cc(S(=O)(=O)Nc2n[nH]c(N)n2)c(S)cc1Cl ; strain: RF ; read by: cytopathic effect / XTT ; result: >200 µM
O=P(c1ccccc1)(c1ccccc1)c1ccccc1 ; strain: IIIB ; read by: cytopathic effect / XTT ; result: 0.58 µM
Cc1ccnc2c1NC(=O)c1cccnc1N2C1CC1 ; strain: IIIB ; read by: syncytia ; result: 0.03 µM

The last 8 rows once more:

structure | strain | mutations | read by | setting | result
O=S(=O)(Nc1nnc2n1-c1ccccc1CC2)c1ccc(Cl)cc1S | RF | - | cytopathic effect / XTT | - | >91.3 µM
Cc1cn([C@@H]2O[C@H](CO[Si](C)(C)C(C)(C)C)C3(OS(=O)(=O)C=C3N)[C@H]2O[Si](C)(C)C(C)(C)C)c(=O)n(C)c1=O | IIIB-TIBO(0.1) | - | syncytia | - | 0.07 µg/mL
CCCCCCCC/C=C\CCCCCCCC(=O)OCC(COC(=O)CCCCCCC/C=C\CCCCCCCC)OC(=O)CCC(=O)O[C@H](CN1C[C@H]2CCCC[C@H]2C[C@H]1C(=O)NC(C)(C)C)[C@H](Cc1ccccc1)NC(=O)[C@H](CC(N)=O)NC(=O)c1ccc2ccccc2n1 | LAI | - | RT activity | - | 0.8 µM
CCn1c(=O)c(C)cn([C@@H]2O[C@H](CO[Si](C)(C)C(C)(C)C)C3(OS(=O)(=O)C=C3N)[C@H]2O[Si](C)(C)C(C)(C)C)c1=O | IIIB TIBO R82913 STR-B22 (RT L100I Y188H) | RT-L100I Y188H | syncytia | - | >50 µM
Cc1cn([C@H]2C[C@H](N=[N+]=[N-])[C@@H](CO)O2)c(=O)[nH]c1=O | C-1 (RT-K101E) | RT-K101E | cytopathic effect | - | 0.0025 µM
CC(=O)Oc1cc(S(=O)(=O)Nc2n[nH]c(N)n2)c(S)cc1Cl | RF | - | cytopathic effect / XTT | - | >200 µM
O=P(c1ccccc1)(c1ccccc1)c1ccccc1 | IIIB | - | cytopathic effect / XTT | - | 0.58 µM
Cc1ccnc2c1NC(=O)c1cccnc1N2C1CC1 | IIIB | - | syncytia | - | 0.03 µM

An empty or dashed field is not shown. Lines come from different laboratories, so protocols vary.